Measurements from patent US20150104459A1, “Compositions and Methods for the Therapy and Diagnosis of Influenza” (published 2015).
Values joined by “and” are separate entries in the source; they are usually repeats but may differ in a detail not shown here. Identical values can stand only once.

How the values were obtained:
[1] = target: recombinant homotrimeric HA, A/chicken/Vietnam/NCVD-016/08 H5N1 (Influenza A virus …); test: trimeric HA microarray; transfection supernatant set 3
[2] = target: T1, recombinant homotrimeric HA, A/swine/Ontario/01911-2/99 H4N6 (Influenza A virus …); test: as above
[3] = target: T2, recombinant homotrimeric HA, A/Solomon Islands/3/06 H1N1 (Influenza A virus A/Solomon …); test: as above
[4] = target: recombinant homotrimeric HA, A/Wisconsin/67/05 H3N2 (Influenza A virus A/Wisconsin/67/05 …)
[5] = target: recombinant homotrimeric HA, A/Netherlands/219/03 H7N7 (Influenza A virus A/Netherlands/219/03 …)
[6] = target: recombinant homotrimeric HA, A/Hong Kong/1073/99 H9N2 (Influenza A virus A/Hong Kong/1073/99 …); test: trimeric HA microarray; transfection supernatant set 3
[7] = target: T3, recombinant homotrimeric HA, A/California/4/09 H1N1 (Influenza A virus A/California/4/09 …); test: as above
[8] = target: recombinant homotrimeric HA, A/northern shoveler/California/HKWF115/07 (Influenza A virus A/northern …); test: as above
[9] = target: T4, recombinant homotrimeric HA, A/Egypt/3300-NAMRU3/08 H5N1 (Influenza A virus …); test: as above
[10] = target: T1, recombinant homotrimeric HA, …; test: trimeric HA microarray; transfection supernatant set 4
[11] = target: recombinant homotrimeric HA, A/Japan/305/57 H2N2 (Influenza A virus A/Japan/305/57 (H2N2))
[12] = target: T2, recombinant homotrimeric HA, A/Solomon …; test: trimeric HA microarray; transfection supernatant set 4
[13] = target: T3, recombinant homotrimeric HA, …; test: as above
[14] = target: T4, recombinant homotrimeric HA, …; test: as above
[15] = target: T2, recombinant homotrimeric HA, A/Solomon …; test: trimeric HA microarray; transfection supernatant set 5
[16] = target: T3, recombinant homotrimeric HA, …; test: as above
[17] = target: T2, recombinant homotrimeric HA, A/Solomon …; test: trimeric HA microarray; transfection supernatant set 1
[18] = target: T3, recombinant homotrimeric HA, …; test: as above
[19] = target: T2, recombinant homotrimeric HA, A/Solomon …; test: trimeric HA microarray; transfection supernatant set 2
[20] = target: T3, recombinant homotrimeric HA, …; test: as above

B1: TCN-532 (5262_H18) (antibody, V domains shown)
VH: QVQLQESGPGLVKPSETLSLTCTVSGGSVSSETYYWSWIRQPPGKGLEWIGYIYYIGNTDYRPSLKSRVTISLDTSKNQFSLKLSSVTAADTAVYYCARGAYYDSSGYPAFYIWGQGTMVTVSS
VL: QSVLTQPPSVSGAPGQRVTISCTGSSSNIGSDYDVHWYKQLPGTAPKLLIFGNSNRPSGVPDRFSGSKSGTSASLAITGLQAEDEADYYCQSYDSSLSGFHVFGSGTKVTVL
[1]
  Trimeric HA Binding: RLU: 29 RLU
[2]
  Trimeric HA Binding: RLU: 29 RLU
[3]
  Trimeric HA Binding: RLU: 59 RLU
[4]
  Trimeric HA Binding: RLU: 9970 RLU
[5]
  Trimeric HA Binding: RLU: 42 RLU

B2: TCN-530 (5248_H10a) (antibody, V domains shown)
VH: QVQLVQSGAEVRKPGSSVKVSCKASGGPFMSYAIGWVRQAPGQGLEWMGGINPVFGRPHYAQKFQGRVTIATDDSTKTSYMELSSLTSEDTGMYYCASRYSRSSPGTFESWGQGTLVTVSS
VL: EIVMTQFPATLSVSPGERVTLSCRASQSVSNNLAWYQQKPGQPPRLLIYDASTRATGVPAKFSGTGSGTEFTLSISSLQSEDFAVYYCQQYHNWPPSYSFGLGTKLEIK
[1]
  Trimeric HA Binding: RLU: 18000 RLU
[6]
  Trimeric HA Binding: RLU: 10200 RLU
[3]
  Trimeric HA Binding: RLU: 13800 RLU
[7]
  Trimeric HA Binding: RLU: 21200 RLU
[8]
  Trimeric HA Binding: RLU: 23500 RLU
[9]
  Trimeric HA Binding: RLU: 25500 RLU

B3: TCN-536 (5095_N01) (antibody, V domains shown)
VH: QVQLQQWGAGLLKPSETLSLTCAVYGGSFSVSGYYWSWIRQPPGRGLEWIGEISHGGSTNYNPSLKSRVTISVDTTKNQFSLRLSSVTAADTAVYYCARGTDPDTEVYCRVGNCAAFDYWGQGSLVTVSS
VL: EIILAQSPGTLSLSPGERATLSCRASQFVSTRSLAWYQQRPGQAPRLLIYGASSRATGIPDRFSGSGSGTDFTLTISRLEPEDFAVYYCQHYGYSPRYAFGQGSKVEIK
[10]
  Trimeric HA Binding: RLU: 168 RLU
[11]
  Trimeric HA Binding: RLU: 260 RLU
[4]
  Trimeric HA Binding: RLU: 20600 RLU

B4: TCN-535 (5246_P19) (antibody, V domains shown)
VH: QVQLVQSGSEVKKPGTSVKVSCTASGSVFTNYGISWVRQAPGQGLEWMGGIIPLFGAAKYAQKFQGRVTITADESTKTVYMELSRLTSKDTAIYFCAKAPRVYEYYFDQWGQGTPVTVSS
VL: EIVLTQSPGTLSLSPGERATLSCRASQSVSSSQLAWYQQKPGQAPRLIIYGASTRATGIPDRFSGSGSGTDFTLTIGRLEPEDFAVFFCQQYSTSPPTFGQGTKVDFK
[12]
  Trimeric HA Binding: RLU: 836 RLU
[13]
  Trimeric HA Binding: RLU: 25200 RLU
[14]
  Trimeric HA Binding: RLU: 25300 RLU

B5: TCN-504 (3251_K17) (antibody, V domains shown)
VH: QVQLQESGPGLVKPSETLSLTCAVSGVSISNIDFYWGWIRQPPGKGLEWIGNIYYTGITFYNPSLSSRVAISIDTSKNQFSLTLTSVTAADTAMYYCARHYGDSEAINDAFDIWGQGTMLTVSS
VL: EIVMTQSPATLSVSPGERATLSCRASQSVGNSLAWYQQRPGQAPRLLIYGASTRATGIPPRFSGSGSGTEFTLTISSLQTEDFAVYYCQQYINWRPLSFGGGTKVEIK
[15]
  Trimeric HA Binding: RLU: 30100 RLU
[16]
  Trimeric HA Binding: RLU: 17600 RLU
[17]
  Trimeric HA Binding: RLU: 29800 RLU
[18]
  Trimeric HA Binding: RLU: 18300 RLU
[12]
  Trimeric HA Binding: RLU: 14600 RLU
[13]
  Trimeric HA Binding: RLU: 549 RLU
[19]
  Trimeric HA Binding: RLU: 31400 RLU
[20]
  Trimeric HA Binding: RLU: 15600 RLU
[3]
  Trimeric HA Binding: RLU: 32700 RLU
[7]
  Trimeric HA Binding: RLU: 18600 RLU
[4]
  Trimeric HA Binding: RLU: 21600 RLU and 21400 RLU and 20600 RLU and 38100 RLU and 14300 RLU
